PubChem BioAssay AID1259414, Drosophila RNAi Screening Center, 2018
The screen tested about 24,000 reagents; below is a random part of those that have a named target and a result. Over the whole deposit, about 1,210 (5%) got an active call. 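Inactive calls also include excluded dsRNAs with several or no targets, genes unexpressed in JW18, and well A1, regardless of score.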 Names joined by + are all predicted targets of the reagent. No sequences are given here.

Test: 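Fly genes that alter Wolbachia amount inside host cells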 (primary screen)
System: Drosophila JW18 cells infected with Wolbachia
Knock-down reagent: long dsRNA against Drosophila genes, 0.25 µg dsRNA per well of a 384-well plate
Duration: 5 days
Conditions: cells persistently infected with Wolbachia before knock-down; no added drug
Measurement: 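Automated imaging of bacterial rRNA staining divided by host cell count, reported as plate-normalised robust z-score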
Reading the numbers: Wolbachia per cell robust z: higher = more Wolbachia per host cell than the plate typical
Active means: 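Active if absolute robust z reaches 1.5 in two or more of three replicates, leaving out multi- or no-target dsRNAs, genes unexpressed in JW18 and A1 wells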

gene | amplicon | Wolbachia per cell robust z, rep 1 | Wolbachia per cell robust z, rep 2 | Wolbachia per cell robust z, rep 3 | Call
Flo2 | DRSC19062 | 0.595 | 0.554 | 0.418 | inactive
Flo2 | DRSC20244 | -0.34 | -0.171 | -1.27 | inactive
CD98hc | DRSC15453 | 0.226 | -0.47 | -0.416 | inactive
Jheh2 | DRSC06530 | -1.53 | 0.0786 | -0.79 | inactive
Jheh2 | DRSC25496 | -0.396 | -1.5 | -0.858 | inactive
Ccp84Ac | DRSC12588 | 0.158 | -1.15 | -1.74 | inactive
Ccp84Ac | DRSC25631 | -4.28 | -0.68 | -0.536 | inactive
Btk | DRSC02008 | 0.209 | -0.196 | -0.357 | inactive
Btk | DRSC02666 | 0.353 | -1.68 | -0.586 | inactive
Btk | DRSC22427 | -2.16 | -0.156 | -0.328 | inactive
meso18E | DRSC20351 | 1.38 | 1.37 | 1.36 | inactive
meso18E | DRSC25315 | 0.539 | -0.65 | -0.000285 | inactive
Syn | DRSC16876 | -1.22 | -2.59 | -4.05 | inactive
Syn | DRSC26448 | 1.02 | 0.66 | 0.216 | inactive
PH4alphaEFB | DRSC14473 | -0.112 | -0.332 | -2.86 | inactive
PH4alphaEFB | DRSC14950 | -4.68 | 0.303 | 0.0189 | inactive
snRNA:U1:95Cb + snRNA:U1:95Cc | DRSC13641 | -0.644 | 0.162 | -5.51 | inactive

6 entries from above, sorted by “Wolbachia per cell robust z, rep 3”, highest first:
gene | amplicon | Wolbachia per cell robust z, rep 1 | Wolbachia per cell robust z, rep 2 | Wolbachia per cell robust z, rep 3 | Call
Btk | DRSC02008 | 0.209 | -0.196 | -0.357 | inactive
Ccp84Ac | DRSC25631 | -4.28 | -0.68 | -0.536 | inactive
Btk | DRSC02666 | 0.353 | -1.68 | -0.586 | inactive
Jheh2 | DRSC06530 | -1.53 | 0.0786 | -0.79 | inactive
Jheh2 | DRSC25496 | -0.396 | -1.5 | -0.858 | inactive
Ccp84Ac | DRSC12588 | 0.158 | -1.15 | -1.74 | inactive

Further results follow.
gene | amplicon | Wolbachia per cell robust z, rep 1 | Wolbachia per cell robust z, rep 2 | Wolbachia per cell robust z, rep 3 | Call
DIP-zeta | DRSC02203 | 0.93 | -1.74 | 0.431 | inactive
DIP-zeta | DRSC02204 | 0.409 | 2.13 | 0.334 | inactive
DIP-zeta | DRSC02205 | 0.639 | 1.59 | 0.707 | inactive
Cbp53E | DRSC07356 | -1.8 | -6.01 | -2.52 | active
Cbp53E | DRSC24679 | -0.298 | 0.613 | 0.734 | inactive
Cbp53E | DRSC38954 | -0.326 | 0.206 | 0.27 | inactive
qsm | DRSC05896 | 0.348 | -0.305 | 0.352 | inactive
qsm | DRSC06393 | 0.0256 | -4.38 | 0.181 | inactive
qsm | DRSC25212 | 0.567 | 2.16 | -0.915 | inactive
Vha26 | DRSC12371 | 0.141 | 0.302 | -0.28 | inactive
Vha26 | DRSC25503 | -0.514 | 1.33 | 1.88 | inactive
Vha26 | DRSC38973 | 0.561 | 1.53 | 2.26 | inactive
lncRNA:CR30055 | DRSC22439 | 0.339 | 0.284 | 0.371 | inactive
lncRNA:CR30055 | DRSC26506 | 1.09 | 0.833 | 0.326 | inactive
CG34140 + Mkp | DRSC26000 | -2.03 | 0.0993 | 0.288 | inactive
GlyT | DRSC04512 | -0.323 | -0.504 | -0.549 | inactive
GlyT | DRSC26130 | -0.427 | -2.32 | -1.85 | inactive
YME1L | DRSC04378 | -1.69 | 1.03 | 1.24 | inactive
myd | DRSC15512 | 0.991 | 0.384 | 0.246 | inactive
Skel | DRSC14905 | -0.449 | 0.0856 | 0.114 | inactive
Skel | DRSC14906 | 0.642 | 0.288 | 0.263 | inactive
CG6576 | DRSC10663 | 0.713 | 0.716 | 0.396 | inactive
CG6576 | DRSC28084 | -0.157 | -0.19 | -0.38 | inactive
CG2063 | DRSC06811 | 3.56 | 2.78 | 1.74 | active
Gcat | DRSC09719 | 0.729 | -0.612 | -0.351 | inactive
Gcat | DRSC26093 | -2.2 | 0.802 | -0.806 | inactive
CG17562 | DRSC15243 | -0.524 | -0.597 | 1.45 | inactive
CG31915 | DRSC03000 | 0.142 | 0.441 | 0.624 | inactive
CG31380 | DRSC15688 | 0.394 | 0.842 | -1.21 | inactive
